Measured values: PMC8124314, “Chimeric Claudins: A New Tool to Study Tight Junction Structure and Function” (2021)

Molecular target: Maltose-binding protein-fused chimeric CLDN1 (MBP-CC1) (human (CLDN1 part))
Assay: SPR

Substance: MBP-fused Clostridium perfringens enterotoxin (MBP-CPE) (domain or fragment)
- Kd: 422 nM
- koff: 0.000871 s⁻¹
- kon: 2060 M⁻¹ s⁻¹
